Data source: PubChem BioAssay AID1259414 (Drosophila RNAi Screening Center, 2018)
Test: 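Fly genes that alter Wolbachia amount inside host cells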 (primary screen). Cell system: Drosophila JW18 cells infected with Wolbachia. Reagents: long dsRNA against Drosophila genes, 0.25 µg dsRNA per well of a 384-well plate. Timing: 5 days. Treatment: cells persistently infected with Wolbachia before knock-down; no added drug. Detection: 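Automated imaging of bacterial rRNA staining divided by host cell count, reported as plate-normalised robust z-score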. Scale: Wolbachia per cell robust z: higher = more Wolbachia per host cell than the plate typical. Hit rule: 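Active if absolute robust z reaches 1.5 in two or more of three replicates, leaving out multi- or no-target dsRNAs, genes unexpressed in JW18 and A1 wells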.
The deposit covers about 24,000 reagents; this is a random part of those that have a named target and a result. Over the whole deposit, about 1,210 (5%) got an active call. 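Inactive calls also include excluded dsRNAs with several or no targets, genes unexpressed in JW18, and well A1, regardless of score.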 A number with no mark means an inactive call. Reagents against one gene are numbered here. Names joined by + are all predicted targets of the reagent. No sequences are given here.

| predicted target | reagent no. | Wolbachia per cell robust z, rep 1 | Wolbachia per cell robust z, rep 2 | Wolbachia per cell robust z, rep 3 |
| --- | --- | --- | --- | --- |
| GrlHz | 1 | -1.79 (active) | -0.0772 | -3.38 |
| dome | 1 | 0.918 | 0.746 | 1.94 |
| dome | 2 | -0.761 | -1.31 | -0.888 |
| PGRP-SC1b + PGRP-SC1a | 1 | 1.09 | 0.103 | -0.193 |
| CG10137 | 1 | 0.276 | -0.993 | -1.45 |
| CG10137 | 2 | -1.3 | -0.46 | -1.36 |
| CG10137 | 3 | -1.32 | -0.00251 | 0.221 |
| CG31126 | 1 | 0.941 | -0.903 | -4.73 |
| CG33308 | 1 | -1.02 | -1.34 | -3.25 |
| CG11583 | 1 | -5.74 | 1.96 | 0.741 |
| CG11583 | 2 | -1.28 | 0.557 | 0.532 |
| CG17991 | 1 | -3.92 (active) | 0.727 | -2.93 |
| TwdlH | 1 | -3.28 | -0.0809 | -1.45 |
| Or24a | 1 | 0.0501 | 0.384 | -0.447 |
| wgn | 1 | -5.71 | -2.4 | -3.67 |
| CG3823 | 1 | 0.696 | 0.0117 | -0.107 |
| CG3823 | 2 | 0.158 | -0.0755 | -0.345 |
| CG34443 | 1 | 2 | 0.688 | 1.55 |
| CG34168 | 1 | 0.546 | 0.136 | -0.298 |
| CG5281 | 1 | 0.52 | 0.38 | 0.507 |
| CG14383 | 1 | -0.344 | 0.435 | 0.728 |
| CG3987 | 1 | -2.12 | -2.02 | 1.93 |
| twi | 1 | 0.778 | -5.18 | 0.358 |
| twi | 2 | 0.677 | -0.829 | 0.983 |
| Edem2 | 1 | 0.478 | 0.525 | 1.08 |
| Edem2 | 2 | 0.454 | 0.066 | -1.28 |
| CG9863 | 1 | -1.6 | 0.0209 | -0.242 |
| CG1737 | 1 | 0.864 | 0.938 | -0.313 |
| CG1737 | 2 | 0.13 | 1.04 | 2.83 |
